Measured values from several laboratories, pooled; numbers as filed in NIAID ChemDB.

Shared fields: growth or infection tests; organism: Candida albicans; endpoint: MIC

Blank or dashed fields: not listed here. Conditions beyond the fields shown may differ between rows.

| compound | strain | read by | value |
|---|---|---|---|
| CN1CCC2=C(CCCC2CCc2cccc(Cl)c2)C1 | 1208E |  | 31 µg/mL |
| CCN(CC)N1C(=O)C(C(Sc2ccccc2)c2c(Cl)cc(C)cc2Cl)SC1=S | ATCC 2091 | broth dilution | 32 µg/mL |
| COc1ccc(CCC2CCCC3=C2CCN(C)C3)cc1OC | C316 |  | >125 µg/mL |
| CCN1C[C@]2(COC)CC[C@H](OC)[C@]34C5CC6[C@H](OC)C5[C@](O)(C[C@@H]6OC)[C@@](O)(C13)[C@@H](OC)[C@H]24 |  |  | 4 µg/mL |
| C=C(Cc1ccc(O)cc1)C(O)(CO)Cc1ccc(OC)cc1O |  |  | 80 µg/mL |
| OCCSCc1ccccc1 |  |  | >512 µg/mL |
| CN1CCC2=C(CCCC2CCc2ccc(Cl)cc2Cl)C1 | 2005E |  | 8 µg/mL |
| COc1ccc2nc(Oc3ccccc3)c(C3C(C#N)=C(N)Oc4c3c(=O)oc3ccccc43)cc2c1 | MTCC 227 |  | 500 µg/mL |
| O=S(O)Cc1ccccc1 |  |  | 2 µg/mL |
| Cc1cnccc1CCCc1ccccc1 | 1208E |  | 16 µg/mL |
| CCC(C)n1ncn(-c2ccc(N3CCN(c4ccc(OC[C@H]5CO[C@](Cn6cncn6)(c6ccc(Cl)cc6Cl)O5)cc4)CC3)cc2)c1=O | KCTC 1940 |  | >100 µg/mL |
| OCCSSCCO |  |  | >512 µg/mL |
| CCOC(=O)c1cn(CC)c2ccc(C)cc2c1=O | ATCC 10231 |  | >100 µg/mL |
| CN1CCC2=C(CCCC2CCc2ccccc2Cl)C1 | 2402E |  | 62 µg/mL |
| Cc1ccc(C(C)C)cc1 |  | broth dilution | 22600 µg/mL |
| Fc1ccc(CCC2CCCc3cnccc32)cc1 | C316 |  | 31 µg/mL |
| CCN(CC)N1C(=O)C(C(Sc2ccccc2)c2ccc(C)cc2)SC1=S | ATCC 2091 | broth dilution | 64 µg/mL |
| CN(C/C=C/C#CC(C)(C)C)Cc1cccc2ccccc12 | ATCC 90028 |  | 1 µg/mL |
| OCCSSCc1ccccc1 |  |  | 128 µg/mL |
| COc1cc(C=O)ccc1O |  | broth dilution | 130 µg/mL |
| N#CC1=C(N)Oc2c(c(=O)oc3ccccc23)C1c1cc2ccccc2nc1Oc1ccccc1 | MTCC 227 |  | 250 µg/mL |
| CC(C)CCCCCCCCCC1CC(=O)N[C@@H](CC(=O)O)C(=O)N[C@@H](CC(C)C)C(=O)N[C@@H](CC(C)C)C(=O)N[C@@H](C(C)C)C(=O)N[C@@H](C(C)C)C(=O)N[C@@H](CCC(=O)O)C(=O)N[C@@H](CC(C)C)C(=O)O1 | Clinical isolate |  | 7 µg/mL |
| CN1CCC2=C(CCCC2CCc2ccc(Br)cc2)C1 | C316 |  | 8 µg/mL |
| Cc1ccc(C(C)C)cc1O |  | broth dilution | >45260 µg/mL |
| c1ccc(CSSCc2ccccc2)cc1 |  |  | 256 µg/mL |
| Cc1cccc(C(Sc2ccccc2)C2SC(=S)NC2=O)c1 | ATCC 2091 | broth dilution | 32 µg/mL |
| Cc1ccc(Oc2nc3ccccc3cc2C2C(C#N)=C(N)Oc3c2c(=O)oc2ccc(C)cc32)cc1 | MTCC 227 |  | 500 µg/mL |
| CN[C@@H]1[C@H](O)[C@@H](O)[C@H](O[C@H]2c3cc(C)c(C(=O)N[C@H](C)C(=O)O)c(O)c3-c3c(cc4c(c3O)C(=O)c3cc(OC)cc(O)c3C4=O)[C@@H]2O)O[C@@H]1C | ATCC 32354 |  | 3.1 µg/mL |
| c1ccc(CC2CCCc3cnccc32)cc1 | C316 |  | 16 µg/mL |
| Cc1ccc2oc(=O)c3c(c2c1)OC(N)=C(C#N)C3c1cc2ccccc2nc1Oc1ccc(Cl)cc1 | MTCC 227 |  | 500 µg/mL |
| O=C1NC(=S)SC1C(O)c1ccc(Cl)cc1Cl | ATCC 2091 | broth dilution | 64 µg/mL |
| CCC(C)n1ncn(-c2ccc(N3CCN(c4ccc(OC[C@H]5CO[C@](Cn6cncn6)(c6ccc(Cl)cc6Cl)O5)cc4)CC3)cc2)c1=O | Isogenic isolate 16 CDR |  | 0.25 µg/mL |
| N#CC1=C(N)Oc2c(c(=O)oc3ccccc23)C1c1cc2ccccc2nc1Oc1ccc(Cl)cc1 | MTCC 227 |  | 250 µg/mL |
| COC(=O)C1=CC[C@@]23CC[C@@H]([C@@](C)(/C=C/C=C(\C)C(=O)O)OC2=O)[C@@]3(O)CC1 | Isolate B311 |  | 3.12 µg/mL |
| COc1cc(O)c(C(C)=O)c(OC)c1 | ICB 12 |  | 125 µg/mL |
| C=C(Cc1ccc(O)cc1)C(=C)Cc1ccc(OC)cc1O |  |  | 10 µg/mL |
| CC(=O)N1CCN(c2ccc(OC[C@H]3CO[C@](Cn4ccnc4)(c4ccc(Cl)cc4Cl)O3)cc2)CC1 | ATCC 24433 |  | 0.125 µg/mL |
| CCn1c(=O)c(C(=O)O)c(O)c2cc3c(cc21)OCO3 | ATCC 10231 |  | >100 µg/mL |
| C=CCc1ccc(OC)c(OC)c1 |  | broth dilution | 1700 µg/mL |
| COc1cc(O)c2c(c1)C(=O)c1c(cc3c(c1O)-c1c(cc(C)c(C(=O)N[C@H](C)C(=O)O)c1O)[C@H](O[C@@H]1O[C@H](C)[C@H](N)[C@H](O[C@@H]4OC[C@@H](O)[C@H](O)[C@@H]4O)[C@H]1O)[C@H]3O)C2=O | ATCC 32354 |  | 1.6 µg/mL |
| Cc1ccc2nc(Oc3ccccc3)c(C3C(C#N)=C(N)Oc4c3c(=O)oc3ccc(C)cc43)cc2c1 | MTCC 227 |  | >1000 µg/mL |

Repeating the final 5 entries:

compound | strain | read by | value
CC(=O)N1CCN(c2ccc(OC[C@H]3CO[C@](Cn4ccnc4)(c4ccc(Cl)cc4Cl)O3)cc2)CC1 | ATCC 24433 |  | 0.125 µg/mL
CCn1c(=O)c(C(=O)O)c(O)c2cc3c(cc21)OCO3 | ATCC 10231 |  | >100 µg/mL
C=CCc1ccc(OC)c(OC)c1 |  | broth dilution | 1700 µg/mL
COc1cc(O)c2c(c1)C(=O)c1c(cc3c(c1O)-c1c(cc(C)c(C(=O)N[C@H](C)C(=O)O)c1O)[C@H](O[C@@H]1O[C@H](C)[C@H](N)[C@H](O[C@@H]4OC[C@@H](O)[C@H](O)[C@@H]4O)[C@H]1O)[C@H]3O)C2=O | ATCC 32354 |  | 1.6 µg/mL
Cc1ccc2nc(Oc3ccccc3)c(C3C(C#N)=C(N)Oc4c3c(=O)oc3ccc(C)cc43)cc2c1 | MTCC 227 |  | >1000 µg/mL